Results of unrelated studies side by side (data: NIAID ChemDB).

Common to all: cytotoxicity tests; endpoint: CC50

Blank or dashed fields: not listed here. CCn is the concentration with n% toxicity to the cells. Conditions beyond the fields shown may differ between rows.

| smiles | cells | method | result |
|---|---|---|---|
| CCCCNC(=S)N=Nc1c(O)n(CN2CCOCC2)c2ccc([N+](=O)[O-])cc12 | MDBK |  | 19 µg/mL |
| CN(C(=O)[C@H](Cc1cc(F)cc(F)c1)NC(=O)c1cccc(C(=O)N[C@@H](Cc2cc(F)cc(F)c2)C(=O)N(C)c2ccc3scnc3c2)c1)c1ccc2scnc2c1 | MT-2 | XTT | 100 µM |
| CCO/N=C\c1ccc(OCCC2CCN(c3ccc(Cl)nn3)CC2)cc1 | MRC-5 | visual reading | >0.1 µg/mL |
| Cc1cc2c(c(C)c1OCC(C)C)c(=O)cc(-c1ccccc1)n2C | HeLa S3 | MTT | >4 µg/mL |
| Nc1nc(Cl)cc(NC2(CO)CCC2)n1 | MDCK |  | >440 µM |
| NC1CC12C1CC3CC(C1)CC2C3 | HEF |  | 80 µg/mL |
| COC(=O)[C@H](C)NP(=O)(OC[C@H]1C/C1=C/n1cnc2c(N)nc(N)nc21)Oc1ccccc1 | MEF |  | 211 µM |
| O=S(=O)(c1cccc2cnccc12)N1CCNCC1 | OM-10.1 |  | 11.5 µg/mL |
| Nc1ncnc2c1CCN2[C@@H]1O[C@H](CO)C[C@H]1O | PRK/E6SM |  | 40 µg/mL |
| Clc1cc(/C=C/c2cccc3ccccc23)nc2ccccc12 | TZM-bl | MTT | 67.77 µM |
| Cc1ccc(N2C(=O)C(C)S/C2=N/N=C2\C(=O)Nc3ccc([N+](=O)[O-])cc32)cc1 | MDBK |  | 41 µg/mL |
| COc1cc(O)c2c(=O)c3ccccc3n(C)c2c1 | OM-10.1 |  | 0.8 µg/mL |
| N#Cc1c(-c2ccccc2)s[nH]c1=S | L929 |  | 60 µM |
| CCO/N=C/c1ccc(OCCC2CCN(c3ccc(C)nn3)CC2)cc1OC | MRC-5 | neutral red | >0.1 µg/mL |
| Nc1ncnc2c1CCN2[C@@H]1O[C@H](CSCCC(N)C(=O)O)C[C@H]1O | PRK/E6SM |  | 200 µg/mL |
| O=c1[nH]c(=O)n([C@H]2CS[C@@H](CO)O2)cc1I | H-1 |  | >100 µM |
| CCOC(=O)C(N)CCSC[C@H]1O[C@@H](n2ccc3c(N)ncnc32)[C@H](O)[C@@H]1O | PRK/E6SM |  | 400 µg/mL |
| O=C(c1ncc(-c2c[nH]c3ccccc23)[nH]1)c1c[nH]c2cc(O)ccc12 | P-388 |  | 2 µg/mL |
| CCn1c(-c2ccccc2)c(C)c(=O)c2c(C)c(OCC(C)C)ccc21 | HeLa S3 | MTT | >5 µg/mL |
| CCCCN1C(=O)CS/C1=N/N=C1\C(=O)Nc2ccc([N+](=O)[O-])cc21 | MDBK |  | >50 µg/mL |
| COS(=O)(=O)[O-].Cn1c(-c2cn(C)c3ccccc23)c[n+](C)c1-c1cn(C)c2cc(Br)ccc12 | P-388 |  | 0.9 µg/mL |
| CSc1nsc(-c2ccccc2Cl)c1C#N | L929 |  | 5 µM |
| COc1cc(/C=C/c2cc(Cl)c3cc(Cl)ccc3n2)cc(OC)c1 | TZM-bl | MTT | 49.14 µM |
| Cn1c2ccccc2c(=O)c2c(O)cccc21 | OM-10.1 |  | 18 µg/mL |
| O=[N+]([O-])c1ccc2c(c1)c(N=NC(=S)Nc1ccc(Cl)cc1)c(O)n2CN1CCCCC1 | MDBK |  | 19 µg/mL |
| Cc1cn([C@H]2O[C@@H](CO)[C@H](O)[C@H]2F)c(=O)[nH]c1=O | H-1 |  | 1000 µM |
| Cc1ccc(NC(=S)N=Nc2c(O)n(CN3CCCCC3)c3ccc([N+](=O)[O-])cc23)cc1 | MDBK |  | 19 µg/mL |
| CC#Cc1cn([C@@H]2O[C@H](CO)[C@@H](O)[C@@]2(C)O)c2ncnc(N)c12 | ET |  | >50 µM |
| Cn1c2ccccc2c(=O)c2ccccc21 | OM-10.1 |  | 16 µg/mL |
| CN(C(=O)[C@H](Cc1cc(F)cc(F)c1)NC(=O)c1ccc(F)c(C(=O)N[C@@H](Cc2cc(F)cc(F)c2)C(=O)N(C)c2ccc3snnc3c2)c1)c1ccc2snnc2c1 | MT-2 | XTT | 100 µM |
| CCn1c(-c2cccs2)c(C)c(=O)c2cc(C(C)C)ccc21 | HELA-OHIO | MTT | >10 µg/mL |
| CNCC1CC12C1CC3CC(C1)CC2C3 | HEF |  | 50 µg/mL |
| COc1ccc(N(C)C(=O)[C@H](Cc2ccccc2)NC(=O)c2cncc(C(=O)N[C@@H](Cc3ccccc3)C(=O)N(C)c3ccc(OC)cc3)n2)cc1 | MT-2 | XTT | 100 µM |
| Nc1nc2c(ncn2COCCO)c(=O)[nH]1 | COS 1 |  | 129 µg/mL |
| CCOC(=O)CCCCCOc1cccc(CN(C(=O)c2ccc(-c3ccc(Cl)c(Cl)c3)cc2)C(C)C)c1 | RAJI |  | >20 µM |
| CCn1c2c(c(=O)c3cc(C(C)C)ccc31)Cc1ccccc1-2 | HELA-OHIO | MTT | >5 µg/mL |
| Cc1ccc(/C=C/c2cc(Cl)c3cc(Cl)ccc3n2)cc1 | TZM-bl | MTT | 46.47 µM |
| CCO/N=C/c1ccc(OCC2CCCN(c3ccc(Cl)nn3)C2)cc1 | MRC-5 | visual reading | >1 µg/mL |
| Cc1ccc(N2C(=O)CS/C2=N/N=C2\C(=O)Nc3ccc([N+](=O)[O-])cc32)cc1 | MDBK |  | >50 µg/mL |
| CCn1c(-c2cccc(C)c2)c(C)c(=O)c2c(Cl)c(OCC(C)C)ccc21 | HELA-OHIO | MTT | >2.5 µg/mL |
| N=C(N)c1cccc(OCc2cccc([N+](=O)[O-])c2)c1 | HUT4-3/SX22-1 |  | <100 µM |
| O=[N+]([O-])c1ccc2c(c1)c(N=NC(=S)NC1CCCCC1)c(O)n2CN1CCOCC1 | MDBK |  | 17 µg/mL |
| CCn1c(-c2ccccc2)c(C)c(=O)c2c(Cl)c(OCC(C)C)ccc21 | HELA-OHIO | MTT | >4 µg/mL |
| COc1nc(N)nc2c1ncn2/C=C1/C[C@H]1CO | MEF |  | 261 µM |
| N=C(N)c1cccc(Oc2ccccc2)c1 | HUT4-3/SX22-1 |  | <100 µM |
| [2H]c1nc2cc(N(C)C(=O)[C@H](Cc3cc(F)cc(F)c3)NC(=O)NS(=O)(=O)N[C@@H](Cc3cc(F)cc(F)c3)C(=O)N(C)c3ccc4sc([2H])nc4c3)ccc2s1 | MT-2 | XTT | 58.7 µM |
| CCO/N=C/c1ccc(OCCCCN(C)c2ccc(Cl)nn2)cc1 | MRC-5 | neutral red | >0.5 µg/mL |
| O=C(O)c1cn(C2CC2)c2cc(N3CCNCC3)ccc2c1=O | CHL |  | 123 µg/mL |
| Cc1cc(N(C)C(=O)[C@H](Cc2cc(F)cc(F)c2)NC(=O)NS(=O)(=O)N[C@@H](Cc2cc(F)cc(F)c2)C(=O)N(C)c2cnc(C)c(C)c2)cnc1C | MT-2 | XTT | 100 µM |
| Nc1nc2c(ncn2[C@H]2C[C@]23C[C@H]3CO)c(=O)[nH]1 | BSC-1 |  | >100 µM |
| COc1ccc(N(C)C(=O)[C@H](Cc2ccccc2)NC(=O)c2cc(Br)cc(C(=O)N[C@@H](Cc3ccccc3)C(=O)N(C)c3ccc(OC)cc3)c2)cc1 | MT-2 | XTT | 100 µM |
| CCOC(=O)CCCCCOc1cccc(CN(C(=O)c2ccc(-c3ccsc3)cc2)C(C)C)c1 | HepG2 |  | >20 µM |
| CCCCCCCCCCCCCCOC(=O)NC(CCC(=O)O)(CCC(=O)O)CCC(=O)O | Huh7-SGcon1b |  | >42 µM |
| CN1C(=O)CS/C1=N/N=C1\C(=O)Nc2ccc([N+](=O)[O-])cc21 | MDBK |  | >50 µg/mL |
| CCOC(=O)CCCCCOc1cccc(CN(C(=O)c2ccc(-c3cccc(NC=O)c3)cc2)C(C)C)c1 | HEK 293 |  | >20 µM |
| CCCCOc1nc(N)c2c(n1)N(Cc1cccc(CN3CCCC3)c1)CC(=O)N2 | Macrophage | luminescence | 22 µM |
| CC(C)N(Cc1cccc(OCCCCCC(=O)OC(=O)O)c1)C(=O)c1ccc(-c2cccc(Cl)c2)cc1 | HEK 293 |  | >20 µM |
| Nc1nc(N)c2ncn(C=C3CC3CO)c2n1 | MEF |  | 293 µM |
| Nc1nc(Cl)cc(NCC2(CO)CC(=O)C2)n1 | MDCK |  | >390 µM |
| COc1ccc(N(C)C(=O)[C@H](Cc2ccccc2)NC(=O)C2CCCCC2C(=O)N[C@@H](Cc2ccccc2)C(=O)N(C)c2ccc(OC)cc2)cc1 | MT-2 | XTT | 33.3 µM |
| Cc1cc(Cl)c2ccccc2n1 | TZM-bl | MTT | 134 µM |
| Nc1ncnc2c1ncn2[C@H]1C[C@@]12C[C@@H]2CO | BSC-1 |  | >100 µM |
| CNC1CC12C1CC3CC(C1)CC2C3 | HEF |  | 90 µg/mL |
| Nc1ncnc2c1ncn2[C@H]1C[C@]12C[C@@H]2CO | BSC-1 |  | >100 µM |
| Cc1cc(Cl)c2cc(Cl)ccc2n1 | TZM-bl | MTT | 75.69 µM |
| CSc1nsc(-c2ccc[n+](C)c2)c1C#N | HEP-2 |  | 1250 µM |
| CO/N=C/c1cc(C)c(OCCCc2cc(C)no2)c(C)c1 | MRC-5 | visual reading | 20 µg/mL |
| Nc1ncnc2c1ncn2[C@H]1C[C@]12C[C@H]2CO | BSC-1 |  | >100 µM |
| COC(=O)C1=C2Nc3ccccc3[C@@]23CCN2[C@H](O)[C@]4(CC5C[C@]67CC(=O)O[C@H]6CCC6NC[C@@]8(c9cccc(OC)c9N(C4)[C@@H]58)[C@@H]67)[C@@H]4OCC[C@]4(C1)[C@H]23 | J-Lat Tat-GFP 82 | absorbance | 0.35 µM |
| Clc1cc(/C=C/c2ccc(N3CCCC3)cc2)nc2ccccc12 | TZM-bl | MTT | 33.45 µM |
| N=C(N)c1cccc(OCc2ccc(Cl)cc2)c1 | HUT4-3/SX22-1 |  | <100 µM |
| CCn1c(-c2cccc(OC)c2)c(C)c(=O)c2cc(C(C)C)ccc21 | HELA-OHIO | MTT | >8 µg/mL |
| Nc1nc(Cl)cc(NCC2(CO)COC2)n1 | MDCK |  | >410 µM |
| Nc1nc2c(ncn2COC(CO)CO)c(=O)[nH]1 | COS 1 |  | 69.9 µg/mL |
| CC(C)N(Cc1cccc(OCCCCCC(=O)OC(=O)O)c1)C(=O)c1ccc(-c2cccc(NC=O)c2)cc1 | HepG2 |  | >20 µM |
| C[C@H]1NCc2cc(-c3ccc4c(=O)c(C(=O)O)cn(C5CC5)c4c3OC(F)F)ccc21 | CHL |  | >200 µg/mL |
| Nc1ncnc2c1ncn2[C@@H]1O[C@H](CCl)C[C@H]1O | PRK/E6SM |  | 400 µg/mL |
| COC(=O)[C@H](C)NP(=O)(OC[C@@H]1C[C@]12C[C@@H]2n1cnc2c(N)ncnc21)Oc1ccccc1 | BSC-1 |  | 70 µM |
| CSc1nsc(-c2ccc(OCc3ccccc3)cc2)c1C#N | L929 |  | >50 µM |
| Nc1ncnc2c1ncn2[C@H]1C[C@@]12C[C@H]2CO | BSC-1 |  | >100 µM |
| C=CCO/N=C/c1cc(C)c(OCCCc2cc(C)no2)c(C)c1 | MRC-5 | visual reading | 17 µg/mL |
| COc1c(N2CCNC(C)C2)ccc2c(=O)c(C(=O)O)cn(C3CC3)c12 | CHL |  | 133 µg/mL |
| CC(C)N(Cc1cccc(OCCCCCC(=O)OC(=O)O)c1)C(=O)c1ccc(-c2cccc([N+](=O)[O-])c2)cc1 | RAJI |  | >20 µM |
| Cc1cc(CCCOc2c(C)cc(/C=N/OCc3ccccc3)cc2C)on1 | MRC-5 | visual reading | 17 µg/mL |

A second listing of 6 rows from above:

smiles	cells	method	result
CC(C)N(Cc1cccc(OCCCCCC(=O)OC(=O)O)c1)C(=O)c1ccc(-c2cccc([N+](=O)[O-])c2)cc1	RAJI		>20 µM
COc1cc(/C=C/c2cc(Cl)c3cc(Cl)ccc3n2)cc(OC)c1	TZM-bl	MTT	49.14 µM
COc1c(N2CCNC(C)C2)ccc2c(=O)c(C(=O)O)cn(C3CC3)c12	CHL		133 µg/mL
Clc1cc(/C=C/c2ccc(N3CCCC3)cc2)nc2ccccc12	TZM-bl	MTT	33.45 µM
COc1ccc(N(C)C(=O)[C@H](Cc2ccccc2)NC(=O)c2cncc(C(=O)N[C@@H](Cc3ccccc3)C(=O)N(C)c3ccc(OC)cc3)n2)cc1	MT-2	XTT	100 µM
CCOC(=O)C(N)CCSC[C@H]1O[C@@H](n2ccc3c(N)ncnc32)[C@H](O)[C@@H]1O	PRK/E6SM		400 µg/mL